Pooled drug test results. Numbers come from NIAID ChemDB, via PubChem.

All rows: whole-cell or culture tests; species: Herpes simplex virus 1; method: cytopathic effect; read-out: EC50

Rows are shuffled and stem from different studies. An empty or dashed field is not shown. ECn: concentration that inhibits the pathogen or its effect by n%.

structure	strain or isolate	cells	result
Cc1cn(C[C@H]2C[C@H]2CO)c(=O)[nH]c1=O			>100 µg/mL
O=c1[nH]c(=S)n([C@@H]2O[C@H](CO)[C@@H](O)[C@@H]2O)cc1CCO	KOS (TK+)	RPMI8226	118.2 µM
N=C1c2ncn([C@@H]3O[C@H](CO)[C@@H](O)[C@H]3O)c2NCN1OCc1ccc(F)cc1	Strain HF	KB	100 µg/mL
CCOc1cc(O)c(C(=O)/C=C/c2ccc(OC)cc2)c(OC)c1	HF	HeLa	>3 µg/mL
Nc1ncnc2c1ncn2CCCC(O)CF	B2006 (TK-)	ESM	>400 µg/mL
O=c1c2ncn(COC(CO)CO)c2[nH]c2nccn12	KOS		0.7 µg/mL
OC[C@H]1O[C@H](c2cc(F)c(F)cc2F)C[C@@H]1O	McIntyre	E6SM	>400 µg/mL
C=CCNC(=S)NNC(=O)c1cc(-c2cc(F)cc(F)c2)ccc1O	KOS	HELA/VERO/HEL	9.6 µg/mL
COC(=O)[C@H](C)NP(=O)(OC[C@H]1O[C@@H](n2cc(/C=C/Br)c(=O)[nH]c2=O)C[C@@H]1O)Oc1ccccc1	KOS TK- acyclovir-resistant	E6SM	48 µM
Nc1nc2c(ncn2[C@H]2OC[C@@H](CO)C2O)c(=O)[nH]1	KOS TK- acyclovir-resistant	E6SM	240 µg/mL
O=c1c2ncn(COCCO)c2[nH]c2nccn12	F		0.08 µg/mL
Nc1ncnc2c1ncn2[C@@H]1C=C(CO)[C@@H](O)[C@H]1O	B2006 (TK-)	E6SM	20 µg/mL
CCCc1cn([C@H]2C[C@H](O)[C@@H](CO)O2)c(=S)[nH]c1=O	A4-3 (TK-)	RPMI8226	>277.6 µM
Nc1ncnc2c1ncn2C[C@@H](CO)OCP(=O)(O)O	F	ESM	0.2 µg/mL
Nc1nc2c(ncn2COC(CO)CO)c(=O)[nH]1		HEP-2	<0.01 µg/mL
CCc1cn([C@H]2C[C@H](O)[C@@H](CO)O2)c(=S)nc1N	A4-3 (TK-)	RPMI8226	>288.6 µM
Nc1ncnc2c1ncn2C[C@@H](CO)OCP(=O)(O)O		VERO	22 µM
O=C(NNC(=S)Nc1ccccc1)c1cc(-c2cc(F)cc(F)c2)ccc1O	KOS	HELA/VERO/HEL	9.6 µg/mL
CO[C@H](CO)[C@@H](O)CCn1cnc2c(N)ncnc21	McIntyre	E6SM	>400 µg/mL
Nc1nc2c(ncn2[C@@H]2C=C[C@H](CO)[C@@H](O)C2)c(=O)[nH]1	McIntyre	E6SM	0.004 µg/mL
O=c1[nH]c(=O)n([C@@H]2OC3COP(=O)(O)OC3[C@H]2O)cc1I	KOS	PRK	200 µg/mL
Cc1cn([C@@H]2O[C@H](CO)[C@@H](O)[C@@H]2F)c(=O)[nH]c1=O		VERO	<0.03 µg/mL
CO[C@H]1[C@H]2O[Si](C(C)C)(C(C)C)O[Si](C(C)C)(C(C)C)OC[C@@H]2O[C@@H]1c1ccccc1	KOS	E6SM	>16 µg/mL
O=c1c2ncn(COCCO)c2nc2[nH]c(-c3ccccc3)c(-c3ccc(C(c4ccccc4)c4ccccc4)cc3)n12	KOS		>16 µg/mL
CC=NC(=N)c1nc(-c2cccc(OC)c2)n(Cc2ccccc2)n1	VMW 1837	E6SM	>10 µg/mL
CC(O)c1cn([C@@H]2O[C@H](CO)[C@@H](O)[C@@H]2O)c(=S)[nH]c1=O	KOS (TK+)	RPMI8226	>245.1 µM
CC[C@@H](O)C1=C[C@@H](n2cnc3c(N)ncnc32)[C@H](O)[C@@H]1O	KOS	E6SM	>400 µg/mL
CCCCOC[C@H]1O[C@@H]2CC(C)(C)C[C@@H]2[C@H]1OCCCC	KOS	E6SM	>80 µg/mL
OC[C@H]1O[C@H](c2cc(Br)c(F)cc2F)C[C@@H]1O	McIntyre	E6SM	>400 µg/mL
CC=NC(=N)c1nc(-c2cccc(OC)c2)n(COCCO)n1	VMW 1837	E6SM	>400 µg/mL
[N-]=[N+]=Nc1cccc(/C=C/c2cn([C@H]3C[C@H](O)[C@@H](COP(=O)(O)O)O3)c(=O)[nH]c2=O)c1	KOS	PRK	>200 µg/mL
Cc1cn([C@H]2OC[C@@H](CO)C2F)c(=O)[nH]c1=O	KOS	E6SM	>80 µg/mL
CCCc1cn([C@H]2C[C@H](O)[C@@H](CO)O2)c(=S)nc1N	A4-3 (TK-)	RPMI8226	>277.4 µM
Nc1nc2c(ncn2COC(CO)CO)c(=O)[nH]1	K1R	VERO	80.3 µM
Nc1nc2nn(CCOCP(=O)(O)O)nc2c(=O)[nH]1	KOS	E6SM	>400 µg/mL
CCC(Sc1ncnc2c1cnn2COCCO)C(N)=O	KOS	E6SM	>400 µg/mL
O=c1[nH]c(=O)n([C@@H]2O[C@H](CO)[C@@H](O)[C@@H]2F)cc1I		VERO	<0.01 µg/mL
NC(=O)CSc1ncnc2c1cnn2COCCO	KOS	E6SM	>400 µg/mL
O=c1[nH]c(=O)n(C2CC(O[N+](=O)[O-])C(CO)O2)cc1I	KOS ACV-R (TK-)	E6SM	>400 µg/mL
Nc1ncnc2c1ncn2CC[C@H](O)CCO	McIntyre	E6SM	>400 µg/mL
O=c1[nH]c(=O)n([C@H]2C[C@H](O)[C@@H](CO)O2)cc1I	KOS	PRK	0.1 µg/mL
C=C(N=CC)c1nc(-c2cccc(C)c2)n([C@@H]2O[C@H](CO)[C@@H](O)[C@H]2O)n1	VMW 1837	E6SM	300 µg/mL
Cc1cn(CCCC(O)CF)c(=O)[nH]c1=O	KOS	ESM	>400 µg/mL
CCC(Sc1ncnc2c1cnn2CCCCO)C(N)=O	B2006 (TK-)	E6SM	>400 µg/mL
Nc1nc2c(ncn2COCCO)c(=O)[nH]1	V61665 (acyclovir-susceptible)	HFF	0.5 µg/mL
Nc1nc2c(ncn2CC#CCO)c(=O)[nH]1			>100 µg/mL
CO[C@H](CO)[C@@H](O)CCn1ccc(N)nc1=O	B2006 (TK-)	E6SM	>400 µg/mL
Nc1ncnc2c1ncn2C/C=C\CO			>100 µg/mL
Nc1ccn(CC[C@H](O)CCO)c(=O)n1	VMW1837 (TK-)	E6SM	>400 µg/mL
CC[C@H](O)C1=C[C@@H](n2cnc3c(N)ncnc32)[C@H](O)[C@@H]1O	KOS	E6SM	>200 µg/mL
OC[C@H]1O[C@@H](c2cc(Br)c(F)cc2F)C[C@@H]1O	KOS/ACV-R	E6SM	>400 µg/mL
Nc1nc(=S)n([C@@H]2O[C@H](CO)[C@@H](O)[C@@H]2O)cc1CO	KOS (TK+)	RPMI8226	>253.5 µM
O=c1c2ncn(COCCO)c2[nH]c2ncc(CO)n12	TK-deficient acyclovir-resistant		>3.2 µg/mL
CC(C)CS[C@@H]1C=C[C@H](n2cnc3c(N)ncnc32)C1	KOS	E6SM	>16 µg/mL
C=Cc1cn([C@@H]2O[C@H](CO)[C@@H](O)[C@@H]2O)c(=S)[nH]c1=O	A4-3 (TK-)	RPMI8226	>266.3 µM
OC[C@H]1O[C@H](c2cc(Cl)c(F)cc2F)C[C@@H]1O	F	E6SM	>400 µg/mL
Nc1nc2c(ncn2C/C=C/CO)c(=O)[nH]1			>100 µg/mL
O=c1[nH]c(=O)n(C2CC(O[N+](=O)[O-])C(CO)O2)cc1F	KOS	E6SM	>400 µg/mL
CC=NC(=N)c1nc(-c2ccccc2)n(Cc2ccccc2)n1	VMW 1837	E6SM	>4 µg/mL
CC(=O)N[C@@H]1[C@@H](O)[C@H](O)[C@@H](CO)O[C@H]1N[C@H]1[C@H](O)[C@@H](C(=O)O)OC(OC2CC[C@@]3(C)C(CC[C@]4(C)C3C(=O)C=C3C5C[C@@](C)(C(=O)O)CC[C@]5(C)CC[C@]34C)C2(C)C)[C@@H]1OC1O[C@H](O)[C@@H](O)[C@H](O)[C@H]1C(=O)O		VERO	4 µg/mL
O=c1[nH]c(=O)n([C@H]2C[C@H](O)[C@@H](CO)O2)cc1CCCl	KOS	PRK	<0.14 µg/mL
Cc1cn(C(CF)CCCO)c(=O)[nH]c1=O	B2006 (TK-)	ESM	>400 µg/mL
Nc1ccn([C@@H]2OC[C@H](CO)[C@H]2O)c(=O)n1	KOS	E6SM	240 µg/mL
O=c1[nH]c(=O)n([C@H]2C[C@H](O)[C@@H](CO)O2)cc1/C=C/Br	KOS TK- acyclovir-resistant	E6SM	>16 µM

For reference, 4 entries again:

Nc1nc2c(ncn2[C@@H]2C=C[C@H](CO)[C@@H](O)C2)c(=O)[nH]1 ; strain or isolate: McIntyre ; cells: E6SM ; result: 0.004 µg/mL
CC(C)CS[C@@H]1C=C[C@H](n2cnc3c(N)ncnc32)C1 ; strain or isolate: KOS ; cells: E6SM ; result: >16 µg/mL
O=c1[nH]c(=O)n([C@H]2C[C@H](O)[C@@H](CO)O2)cc1/C=C/Br ; strain or isolate: KOS TK- acyclovir-resistant ; cells: E6SM ; result: >16 µM
O=C(NNC(=S)Nc1ccccc1)c1cc(-c2cc(F)cc(F)c2)ccc1O ; strain or isolate: KOS ; cells: HELA/VERO/HEL ; result: 9.6 µg/mL